Compound potency records, mixed from different reports. Data source: NIAID ChemDB in PubChem.

All rows: growth or infection tests; species: Mycobacterium tuberculosis

Blank or dashed fields: not listed here. Inhibition is in % at the dose shown (toxicity tests: loss of growth or viability). MIC bound: limit read from a one-dose screen. Lines come from different laboratories, so protocols vary.

| SMILES | dose | strain or isolate | read by | measure | result |
|---|---|---|---|---|---|
| CCN(CC)CCCNc1ncnc2ccccc12 |  | H37Rv |  | MIC | >100 µg/mL |
| CCC12C=CCN3CC[C@@]4(c5ccc(OC)cc5N(C)[C@H]4[C@@](O)(C(=O)OC)[C@@H]1OC(C)=O)[C@@H]32 |  | H37Rv | BACTEC | MIC bound | >12.5 µg/mL |
| Cc1ccc2ccc(N)cc2n1 |  | H37Rv |  | MIC | >100 µg/mL |
| CC(=O)OC(C)(C)/C=C/C(=O)C(C)(O)C1C(O)CC2(C)C3CC=C4C(CC(O)C(O)C4(C)C)C3(C)C(=O)CC12C |  | H37Rv | BACTEC | MIC bound | >12.5 µg/mL |
| CNC(N)=S |  | H37Rv |  | MIC | >100 µg/mL |
| C[C@@H]1[C@H]2C[C@@H](C[C@H]1NCCN[C@H]1C[C@H]3CC[C@]1(C)C3(C)C)C2(C)C |  |  |  | MIC | 12.5 µM |
| COC1C(O)=C2C(=O)OC(C)(O)/C=C/C=C/C=C/C=C\C(c3ccccc3)NC(=O)/C=C/C=C/C=C/C=C/C2(C)C1O |  | TAC-R |  | MIC | >12.5 µg/mL |
| CC(C)(CO)C(O)C(=O)NCCS(=O)(=O)[O-].[Na+] |  | H37Rv |  | MIC | >100 µg/mL |
| COc1cc(C(=O)OC2CC34CCNC35CC(OC5(OC)C2O)c2cc3c(cc24)OCO3)ccc1O |  | H37Rv | BACTEC | MIC bound | >12.5 µg/mL |
| CC(CNC1CCCCCCC1)NCC12CC3CC(CC(C3)C1)C2 |  |  |  | MIC | 25 µM |
| O=C(O)C(O)(O)C(O)(O)C(=O)O.[Na+] |  | H37Rv |  | MIC | >100 µg/mL |
| CC(C)=CCC/C(C)=C/CNCCNC1CCCC(C)C1C |  |  |  | MIC | 25 µM |
| Cc1ccc(Nc2cc(=O)[nH]c(N)n2)cc1C | 12.5 µg/mL | H37Rv | BACTEC | inhibition | 57% |
| CC(=O)Nc1ccc(C(=O)O)c(O)c1 |  | H37Rv |  | MIC | 100 µg/mL |
| CCC1CCCCN1CCNC/C=C(\C)CCC=C(C)C |  |  |  | MIC | 12.5 µM |
| CCC(C)c1c(NS(=O)(=O)c2ccc(C)cc2)o[nH]c1=O |  | H37Rv | BACTEC | MIC bound | >12.5 µg/mL |
| O=c1[nH]c2ccccc2o1 |  | H37Rv |  | MIC | 25 µg/mL |
| Fc1ccccc1CCNCCN1CCCC2CCCCC21 |  |  |  | MIC | 50 µM |
| c1ccc(C(CNCCNCC(c2ccccc2)c2ccccc2)c2ccccc2)cc1 |  |  |  | MIC | 37.5 µM |
| CNC(=O)OCc1c(C)oc(-c2ccc(Cl)c(Cl)c2)c1COC(=O)NC |  | H37Rv | BACTEC | MIC bound | >12.5 µg/mL |
| COc1ccc2cccnc2c1-n1c(C)ccc1C |  | H37Rv |  | MIC | >100 µg/mL |
| O=S(=O)(O)c1ccc2cc(N=Nc3cc(S(=O)(=O)O)c4cccnc4c3O)ccc2c1 | 6.25 µg/mL | H37Rv | BACTEC | inhibition | 19% |
| O=Cc1ccc([N+](=O)[O-])cc1C(=O)O |  | H37Rv |  | MIC | >100 µg/mL |
| COc1ccccc1CCNCCNC1CCCc2ccccc21 |  |  |  | MIC | 50 µM |
| CO[C@H]1/C=C/O[C@@]2(C)Oc3c(C)c(O)c4c(=O)c(c5oc6cc(N7CCN(C(C)C)CC7)cc(=O)c6nc5c4c3=C2O)NC(=O)/C(C)=C\C=C\[C@H](C)[C@H](O)[C@@H](C)[C@@H](O)[C@@H](C)[C@H](OC(C)=O)[C@@H]1C |  | 2847 (rifampin-sensitive) |  | MIC | 0.05 µg/mL |
| CCCCC(CC)CN1CN(CC(CC)CCCC)CC(C)(NCCN[C@H](CO)Cc2ccccc2)C1 |  |  |  | MIC | 25 µM |
| CC(NCCNCC1(O)CCCCC1)c1cccc2ccccc12 |  |  |  | MIC | 50 µM |
| CC(=O)Nc1cc(C)ccc1C(C)C |  | H37Rv |  | MIC | >100 µg/mL |
| CC1=C(C)C23Cn4c(=O)n(-c5ccccc5)c(=O)n4[C@]2(C)C1(C)[C@@H]3C |  | H37Rv | resazurin | MIC bound | >6.25 µg/mL |
| CC(CNC1CCCCCCC1)N[C@H]1C[C@H]2C[C@@H]([C@@H]1C)C2(C)C |  |  |  | MIC | 12.5 µM |
| Cc1ccc(NC(=O)CCC(=O)O)cc1[N+](=O)[O-] |  | H37Rv | BACTEC | MIC bound | >12.5 µg/mL |
| CC(=O)NCCN |  | H37Rv |  | MIC | >100 µg/mL |
| CC(C)=CCC/C(C)=C/CNCCNC1CCCC(C)C1C |  |  |  | MIC | 25 µM |
| O=C(O)c1cc(=O)c2ccc3ccccc3c2[nH]1 |  | H37Rv |  | MIC | >100 µg/mL |
| C[n+]1c(-c2ccc(/C=N/NC(=O)N/N=C/c3ccc(-c4cn5ccccc5[n+]4C)cc3)cc2)cn2ccccc21.Cc1ccc(S(=O)(=O)[O-])cc1.Cc1ccc(S(=O)(=O)[O-])cc1 |  | H37Rv | BACTEC | MIC bound | ≤12.5 µg/mL |
| Cn1ncc2cccc([N+](=O)[O-])c21 |  | H37Rv |  | MIC | >100 µg/mL |
| O=C1C(Cl)=C(Nc2nccs2)C(=O)c2ccccc21 |  | H37Rv | BACTEC | MIC bound | >12.5 µg/mL |
| O/N=C/c1cc(O)ccc1O |  | H37Rv |  | MIC | 25 µg/mL |
| CC(C)=CCC/C(C)=C/CNCCN[C@@H]1C[C@@H]2C[C@H]([C@H]1C)C2(C)C |  |  |  | MIC | 25 µM |
| CCCCCCCCCCCCc1ccc(/C(C)=N/NC(=O)c2ccc[n+](C)c2)cc1.Cc1ccc(S(=O)(=O)[O-])cc1 |  | H37Rv | BACTEC | MIC bound | >12.5 µg/mL |
| OC(COc1ccccc1)CN1CCOCC1 |  | H37Rv |  | MIC | >100 µg/mL |
| CO[C@H]1/C=C/O[C@@]2(C)Oc3c(C)c(O)c4c(O)c(c5c(c4c3C2=O)NC2(CCN(C)CC2)N=5)=NC(=O)/C(C)=C\C=C\[C@H](C)[C@H](O)[C@@H](C)[C@@H](O)[C@@H](C)[C@H](OC(C)=O)[C@@H]1C |  | H37Rv | resazurin | MIC | ≤0.1 µg/mL |
| C=CCNCCNC(C)CO |  |  |  | MIC | 50 µM |
| O=C1c2[nH]cnc2N(Cc2ccc(Cl)cc2)C2=NCCN12 |  | H37Rv | resazurin | MIC bound | >6.25 µg/mL |
| CO[C@H]1/C=C/O[C@@]2(C)Oc3c(C)c(O)c4c(O)c(c(/C=N/N5CCN(C/C=C/c6ccccc6)CC5)c(O)c4c3C2=O)NC(=O)/C(C)=C\C=C\[C@H](C)[C@H](O)[C@@H](C)[C@@H](O)[C@@H](C)[C@H](OC(C)=O)[C@@H]1C |  | 27 (rifampin-resistant) |  | MIC | 0.1 µg/mL |

4 of the rows above, restated:

SMILES | dose | strain or isolate | read by | measure | result
CNC(N)=S |  | H37Rv |  | MIC | >100 µg/mL
CO[C@H]1/C=C/O[C@@]2(C)Oc3c(C)c(O)c4c(O)c(c5c(c4c3C2=O)NC2(CCN(C)CC2)N=5)=NC(=O)/C(C)=C\C=C\[C@H](C)[C@H](O)[C@@H](C)[C@@H](O)[C@@H](C)[C@H](OC(C)=O)[C@@H]1C |  | H37Rv | resazurin | MIC | ≤0.1 µg/mL
Cn1ncc2cccc([N+](=O)[O-])c21 |  | H37Rv |  | MIC | >100 µg/mL
CC1=C(C)C23Cn4c(=O)n(-c5ccccc5)c(=O)n4[C@]2(C)C1(C)[C@@H]3C |  | H37Rv | resazurin | MIC bound | >6.25 µg/mL